Pooled drug test results. Numbers come from NIAID ChemDB, via PubChem.

Shared fields: whole-cell or culture tests; organism: Mycobacterium avium complex

Neighbouring rows are from separate reports. a–b is a range or a potency band. MIC50, MIC90 and the like: level of inhibition, or share of isolates inhibited.

CO[C@H]1/C=C/O[C@@]2(C)Oc3c(C)c(O)c4c(O)c(c5c(c4c3C2=O)NC2(CCN(CC(C)C)CC2)N=5)=NC(=O)/C(C)=C\C=C\[C@H](C)[C@H](O)[C@@H](C)[C@@H](O)[C@@H](C)[C@H](OC(C)=O)[C@@H]1C ; strain or isolate: 9838 ; read-out: MIC ; value: 1 µg/mL
COc1cc2c(c3oc(=O)c4c(c13)CCC4=O)C1C=COC1O2 ; strain or isolate: 32 isolates ; read-out: MIC50 ; value: 32 µg/mL
NCC[C@H](O)C(=O)N[C@@H]1C[C@H](N)[C@@H](O[C@H]2O[C@H](CN)[C@@H](O)[C@H](O)[C@H]2O)[C@H](O)[C@H]1O[C@H]1O[C@H](CO)[C@@H](O)[C@H](N)[C@H]1O ; strain or isolate: 37 strains ; read-out: MIC90 ; value: 8 µg/mL
Cc1c(F)c(N2CCNC(C)C2)cc2c1c(=O)c(C(=O)O)cn2C1CC1 ; strain or isolate: 16 isolates ; read-out: MIC90 ; value: 25 µg/mL
CC(C)N=c1cc2n(-c3ccc(Cl)cc3)c3ccccc3nc-2cc1Nc1ccc(Cl)cc1 ; strain or isolate: 37 strains ; read-out: MIC50 ; value: 4 µg/mL
CN[C@@H]1[C@@H](O)[C@@H](O[C@@H]2[C@@H](O)[C@H](O[C@H]3O[C@H](CN)CC[C@H]3N)[C@@H](N)C[C@H]2N)OC[C@]1(C)O ; strain or isolate: TMC 1411 ; read-out: MIC ; value: <0.01 µg/mL
CO[C@H]1/C=C/O[C@@]2(C)Oc3c(C)c(O)c4c(O)c(c(/C=N/N5CCN(C)CC5)c(O)c4c3C2=O)NC(=O)/C(C)=C\C=C\[C@H](C)[C@H](O)[C@@H](C)[C@@H](O)[C@@H](C)[C@H](OC(C)=O)[C@@H]1C ; strain or isolate: 20 strains ; read-out: MIC90 ; value: 40–80 µg/mL
CNC1CCCN(c2c(F)cc3c(=O)c(C(=O)O)cn(C4CC4)c3c2OC)C1 ; strain or isolate: 16 isolates ; read-out: MIC50 ; value: 12.5 µg/mL
NC[C@H]1O[C@H](O[C@H]2[C@H](O)[C@@H](O[C@H]3O[C@H](CO)[C@@H](O)[C@H](N)[C@H]3O)[C@H](N)C[C@@H]2N)[C@H](N)C[C@@H]1O ; strain or isolate: 32 isolates ; read-out: MIC ; value: 8 µg/mL
CCCN1CCN(c2cc(=O)c3nc4c(oc3c2)c2c(=O)c3c(O)c(C)c5c(c34)=C(O)[C@@](C)(O/C=C/[C@H](OC)[C@@H](C)[C@@H](OC(C)=O)[C@H](C)[C@H](O)[C@H](C)[C@@H](O)[C@@H](C)/C=C/C=C(/C)C(=O)N2)O5)CC1 ; strain or isolate: 18 strains ; read-out: MIC50 ; value: 0.1 µg/mL
NC1CCN(c2nc3c(cc2F)c(=O)c(C(=O)O)cn3-c2ccc(F)cc2F)C1 ; strain or isolate: 16 isolates ; read-out: MIC50 ; value: >100 µg/mL
NCCC[C@H](N)CC(=O)N[C@H]1CNC(=O)[C@H]([C@H]2C[C@H](O)NC(N)=N2)NC(=O)/C(=C/NC(N)=O)NC(=O)[C@H](CO)NC(=O)[C@H](CO)NC1=O ; strain or isolate: TMC 1473 ; read-out: MIC ; value: 12.5 µg/mL
O=C(O)c1cn(C2CC2)c2cc(N3CCNCC3)c(F)cc2c1=O ; strain or isolate: 32 isolates ; read-out: MIC50 ; value: 4 µg/mL
NC[C@H]1O[C@H](O[C@H]2[C@H](O[C@@H]3O[C@H](CO)[C@@H](O)[C@H]3O)[C@@H](O)[C@H](N)C[C@@H]2N)[C@H](N)[C@@H](O)[C@@H]1O ; strain or isolate: TMC 1473 ; read-out: MIC ; value: 0.78 µg/mL
CC[C@H]1OC(=O)[C@H](C)[C@@H](O[C@H]2C[C@@](C)(OC)[C@@H](O)[C@H](C)O2)[C@H](C)[C@@H](O[C@@H]2O[C@H](C)C[C@H](N(C)C)[C@H]2O)[C@](C)(O)C[C@@H](C)CN(C)[C@H](C)[C@@H](O)[C@]1(C)O ; strain or isolate: 32 isolates ; read-out: MIC50 ; value: 8 µg/mL
C[C@@H]1CN(c2c(F)c(N)c3c(=O)c(C(=O)O)cn(C4CC4)c3c2F)C[C@H](C)N1 ; strain or isolate: 37 strains ; read-out: MIC90 ; value: 16 µg/mL
CNC1C(OC2C(OC3C(O)C(O)C(N=C(N)N)C(O)C3N=C(N)N)OC(C)C2(O)/C=N/NC(=O)c2ccncc2)OC(CO)C(O)C1O ; strain or isolate: 32 isolates ; read-out: MIC ; value: 5 µg/mL
CCCN1CCN(c2cc(=O)c3nc4c(oc3c2)c2c(=O)c3c(O)c(C)c5c(c34)=C(O)[C@@](C)(O/C=C/[C@H](OC)[C@@H](C)[C@@H](OC(C)=O)[C@H](C)[C@H](O)[C@H](C)[C@@H](O)[C@@H](C)/C=C/C=C(/C)C(=O)N2)O5)CC1 ; strain or isolate: 20 strains ; read-out: MIC90 ; value: 0.3 µg/mL
C[C@H]1COc2c(N3CCN(C)CC3)c(F)cc3c(=O)c(C(=O)O)cn1c23 ; strain or isolate: 16 isolates ; read-out: MIC50 ; value: 12.5 µg/mL
CC[C@@H](C)N1CCN(c2cc(=O)c3nc4c(oc3c2)c2c(=O)c3c(O)c(C)c5c(c34)=C(O)[C@@](C)(O/C=C/[C@H](OC)[C@@H](C)[C@@H](OC(C)=O)[C@H](C)[C@H](O)[C@H](C)[C@@H](O)[C@@H](C)/C=C/C=C(/C)C(=O)N2)O5)CC1 ; strain or isolate: 18 strains ; read-out: MIC90 ; value: 3.13 µg/mL
NC[C@@H]1O[C@H](O[C@H]2[C@@H](O)[C@H](O[C@@H]3[C@@H](O)[C@H](N)C[C@H](N)[C@H]3O[C@H]3O[C@H](CO)[C@@H](O)C[C@H]3N)O[C@@H]2CO)[C@H](N)[C@@H](O)[C@@H]1O[C@H]1O[C@H](CO)[C@@H](O)[C@H](O)[C@@H]1O ; strain or isolate: TMC 1406 ; read-out: MIC ; value: 0.39 µg/mL
CCC(C)N1CCN(c2cc(=O)c3nc4c(oc3c2)c2c(=O)c3c(O)c(C)c5c(c34)=C(O)[C@@](C)(O/C=C/[C@H](OC)[C@@H](C)[C@@H](OC(C)=O)[C@H](C)[C@H](O)[C@H](C)[C@@H](O)[C@@H](C)/C=C/C=C(/C)C(=O)N2)O5)CC1 ; strain or isolate: 31F093T ; read-out: MIC ; value: 0.035 µg/mL
CC[C@H]1OC(=O)[C@H](C)[C@@H](O[C@H]2C[C@@](C)(OC)[C@@H](O)[C@H](C)O2)[C@H](C)[C@@H](O[C@@H]2O[C@H](C)C[C@H](N(C)C)[C@H]2O)[C@](C)(OC)C[C@@H](C)C(=O)[C@H](C)[C@@H](O)[C@]1(C)O ; strain or isolate: 32 isolates ; read-out: MIC50 ; value: 1 µg/mL
CCn1cc(C(=O)O)c(=O)c2cc(F)c(N3CCNCC3)cc21 ; strain or isolate: 16 isolates ; read-out: MIC90 ; value: 100 µg/mL
NC[C@H]1O[C@H](O[C@H]2[C@H](O)[C@@H](O[C@H]3O[C@H](CO)[C@@H](O)[C@H](N)[C@H]3O)[C@H](N)C[C@@H]2N)[C@H](O)[C@@H](O)[C@@H]1O ; strain or isolate: TMC 1403 ; read-out: MIC ; value: 0.39 µg/mL
COc1ccc(/C=N/NC(=O)c2ccncc2)cc1OC ; strain or isolate: 32 isolates ; read-out: MIC ; value: 10 µg/mL

Again, the opening 2 rows:

structure | strain or isolate | read-out | value
CO[C@H]1/C=C/O[C@@]2(C)Oc3c(C)c(O)c4c(O)c(c5c(c4c3C2=O)NC2(CCN(CC(C)C)CC2)N=5)=NC(=O)/C(C)=C\C=C\[C@H](C)[C@H](O)[C@@H](C)[C@@H](O)[C@@H](C)[C@H](OC(C)=O)[C@@H]1C | 9838 | MIC | 1 µg/mL
COc1cc2c(c3oc(=O)c4c(c13)CCC4=O)C1C=COC1O2 | 32 isolates | MIC50 | 32 µg/mL